Data published in US8211662B2, “Nitroreductase enzymatic substrates” (Biomerieux, priority 2007, dated 2012).

Tests used:
Experiment in all cases: Nitroreductase detection on Columbia agar, colonies read under UV
[1] = system: Listeria monocytogenes NCTC 11994; format: cell-based; conditions: Table 3; 100 mg/l in Columbia agar, 24 h 37° C., UV 360-365 nm
Protocol: (§1) A mass of 40 mg of each substrate was dissolved in 4 ml of dimethylformamide (DMF). This solution was entirely taken up in 400 ml of Columbia agar autoclaved beforehand and kept molten at 50° C. The final concentration for each substrate was 100 mg/l.
(§2) Each of the media was distributed into Petri dishes 90 mm in diameter, in a proportion of 20 ml per dish.
(§3) 18 microorganism strains derived from collections and belonging to various species of bacteria and of yeasts were inoculated onto these media by semi-quantitative isolation of 10 μl of a suspension at 0.5 McFarland diluted to 1/20. The media were incubated for 24 hours at 37° C., then the colonies formed were examined visually under UV illumination at 360-365 nm.

[2] = system: Burkholderia cepacia 1222; format: cell-based; conditions: Table 3; 100 mg/l in Columbia agar, 24 h 37° C., UV 360-365 nm
Protocol: as §1, §2, §3

[3] = system: Staphylococcus aureus NCTC 6571; format: cell-based; conditions: 100 mg/l in Columbia agar, 24 h 37° C., UV 360-365 nm; for F: fluorescence (color), Staphylococcus aureus NCTC 6571: Table 3
Protocol: as §1, §2, §3

[4] = system: Salmonella typhimurium NCTC 74; format: cell-based; conditions: 100 mg/l in Columbia agar, 24 h 37° C., UV 360-365 nm; for F: fluorescence (color), Salmonella typhimurium NCTC 74: Table 3
Protocol: as §1, §2, §3

[5] = system: Yersinia enterocolitica NCTC 11176; format: cell-based; conditions: 100 mg/l in Columbia agar, 24 h 37° C., UV 360-365 nm
Protocol: as §1, §2, §3

[6] = system: Escherichia coli NCTC 10418; format: cell-based; conditions: 100 mg/l in Columbia agar, 24 h 37° C., UV 360-365 nm; for F: fluorescence (color), Escherichia coli NCTC 10418: Table 3
Protocol: as §1, §2, §3

[7] = system: Citrobacter freundii 46262 (wild); format: cell-based; conditions: 100 mg/l in Columbia agar, 24 h 37° C., UV 360-365 nm; for F: fluorescence (color), Citrobacter freundii 46262 (wild): Table 3; for Color of the fluorescence, Citrobacter freundii 46262 (wild): Table 4
Protocol: as §1, §2, §3

[8] = system: Morganella morganii 462403 (wild); format: cell-based; conditions: 100 mg/l in Columbia agar, 24 h 37° C., UV 360-365 nm; for F: fluorescence (color), Morganella morganii 462403 (wild): Table 3; for Color of the fluorescence, Morganella morganii 462403: Table 2; for Color of the fluorescence, Morganella morganii 462403 (wild): Table 4
Protocol: as §1, §2, §3

[9] = system: Providencia rettgeri NCTC 7475; format: cell-based; conditions: 100 mg/l in Columbia agar, 24 h 37° C., UV 360-365 nm; for F: fluorescence (color), Providencia rettgeri NCTC 7475: Table 3; for Color of the fluorescence, Providencia rettgeri NCTC 7475: Table 4
Protocol: as §1, §2, §3

MRSA NCTC 11939 = format: cell-based, Staphylococcus aureus; conditions: 100 mg/l in Columbia agar, 24 h 37° C., UV 360-365 nm; for F: fluorescence (color), MRSA NCTC 11939: Table 3; for Color of the fluorescence, Staphylococcus aureus NCTC 11939: Table 2; for Color of the fluorescence, MRSA NCTC 11939: Table 4
Protocol: as §1, §2, §3

[10] = system: Enterobacter cloacae NCTC 11936; format: cell-based; conditions: 100 mg/l in Columbia agar, 24 h 37° C., UV 360-365 nm
Protocol: as §1, §2, §3

[11] = system: Acinetobacter baumanii ATCC 19606; format: cell-based; conditions: 100 mg/l in Columbia agar, 24 h 37° C., UV 360-365 nm
Protocol: as §1, §2, §3

[12] = system: Pseudomonas aeruginosa NCTC 10662; format: cell-based; conditions: Table 4; 100 mg/l in Columbia agar, 24 h 37° C., UV 360-365 nm
Protocol: as §1, §2, §3

O=[N+]([O-])c1ccccc1-c1nc2ccccc2o1 [Substrate 1]
violet: F: fluorescence (color), Listeria monocyto genes NCTC 11994 [1] | F: fluorescence (color), Burkholderia cepacia 1222 [2] | F: fluorescence (color), Staphylococcus aureus NCTC 6571 [3] | F: fluorescence (color), Salmonella typhimurium NCTC 74 [4] | F: fluorescence (color), Yersinia enterocolitica NCTC 11176 ([5]; Table 3) | F: fluorescence (color), Escherichia coli NCTC 10418 [6] | F: fluorescence (color), Citrobacter freundii 46262 (wild) [7] | F: fluorescence (color), Morganella morganii 462403 (wild) [8] | F: fluorescence (color), Providencia rettgeri NCTC 7475 [9] | F: fluorescence (color), MRSA NCTC 11939 (MRSA NCTC 11939)

O=[N+]([O-])c1ccccc1-c1nc2cc(Cl)ccc2o1 [Substrate 2]
Blue: Color of the fluorescence, Enterobacter cloacae NCTC 11936 ([10]; Table 2) | Color of the fluorescence, Staphylococcus aureus NCTC 6571 ([3]; Table 2) | Color of the fluorescence, Acinetobacter baumanii ATCC 19606 ([11]; Table 2) | Color of the fluorescence, Yersinia enterocolitica NCTC 11176 ([5]; Table 2) | Color of the fluorescence, Escherichia coli NCTC 10418 ([6]; Table 2) | Color of the fluorescence, Morganella morganii 462403 [8] | Color of the fluorescence, Staphylococcus aureus NCTC 11939 (MRSA NCTC 11939)

O=[N+]([O-])c1cc2c(cc1-c1nc3ccccc3o1)OCO2 [Substrate 5]
violet: F: fluorescence (color), Listeria monocyto genes NCTC 11994 [1] | F: fluorescence (color), Burkholderia cepacia 1222 [2] | F: fluorescence (color), Staphylococcus aureus NCTC 6571 [3] | F: fluorescence (color), Salmonella typhimurium NCTC 74 [4] | F: fluorescence (color), Escherichia coli NCTC 10418 [6] | F: fluorescence (color), Citrobacter freundii 46262 (wild) [7] | F: fluorescence (color), Morganella morganii 462403 (wild) [8] | F: fluorescence (color), Providencia rettgeri NCTC 7475 [9] | F: fluorescence (color), MRSA NCTC 11939 (MRSA NCTC 11939)

COc1cc(-c2nc3ccccc3o2)c([N+](=O)[O-])cc1OC [Substrate 6]
Blue: Color of the fluorescence, Enterobacter cloacae NCTC 11936 ([10]; Table 2) | Color of the fluorescence, Staphylococcus aureus NCTC 6571 ([3]; Table 2) | Color of the fluorescence, Escherichia coli NCTC 10418 ([6]; Table 2) | Color of the fluorescence, Morganella morganii 462403 [8] | Color of the fluorescence, Staphylococcus aureus NCTC 11939 (MRSA NCTC 11939)

O=[N+]([O-])c1ccc(F)cc1-c1nc2ccccc2o1 [Substrate 7]
Blue: Color of the fluorescence, Enterobacter cloacae NCTC 11936 ([10]; Table 2) | Color of the fluorescence, Staphylococcus aureus NCTC 6571 ([3]; Table 2) | Color of the fluorescence, Salmonella typhimurium NCTC 74 ([4]; Table 2) | Color of the fluorescence, Acinetobacter baumanii ATCC 19606 ([11]; Table 2) | Color of the fluorescence, Escherichia coli NCTC 10418 ([6]; Table 2) | Color of the fluorescence, Morganella morganii 462403 [8] | Color of the fluorescence, Staphylococcus aureus NCTC 11939 (MRSA NCTC 11939)

O=[N+]([O-])c1ccccc1-c1nc2ccccc2n1CCc1ccccc1 [Substrate 12]
Blue: Color of the fluorescence, Morganella morganii 462403 [8]

O=[N+]([O-])c1ccc(F)cc1-c1nc2ccccc2s1 [Substrate 15]
Blue: Color of the fluorescence, Enterobacter cloacae NCTC 11936 ([10]; Table 2) | Color of the fluorescence, Staphylococcus aureus NCTC 6571 ([3]; Table 2) | Color of the fluorescence, Salmonella typhimurium NCTC 74 ([4]; Table 2) | Color of the fluorescence, Acinetobacter baumanii ATCC 19606 ([11]; Table 2) | Color of the fluorescence, Escherichia coli NCTC 10418 ([6]; Table 2) | Color of the fluorescence, Morganella morganii 462403 [8] | Color of the fluorescence, Staphylococcus aureus NCTC 11939 (MRSA NCTC 11939)
turquoise: Color of the fluorescence, Enterobacter cloacae NCTC 11936 ([10]; Table 4) | Color of the fluorescence, Staphylococcus aureus NCTC 6571 ([3]; Table 4) | Color of the fluorescence, Salmonella typhimurium NCTC 74 ([4]; Table 4) | Color of the fluorescence, Acinetobacter baumanii ATCC 19606 ([11]; Table 4) | Color of the fluorescence, Pseudomonas aeruginosa NCTC 10662 [12] | Color of the fluorescence, Escherichia coli NCTC 10418 ([6]; Table 4) | Color of the fluorescence, Citrobacter freundii 46262 (wild) [7] | Color of the fluorescence, Morganella morganii 462403 (wild) [8] | Color of the fluorescence, Providencia rettgeri NCTC 7475 [9] | Color of the fluorescence, MRSA NCTC 11939 (MRSA NCTC 11939)

CN1CCN(c2ccc([N+](=O)[O-])c(-c3nc4ccccc4s3)c2)CC1 [Substrate 23]
yellow: Color of the fluorescence, Enterobacter cloacae NCTC 11936 ([10]; Table 4) | Color of the fluorescence, Staphylococcus aureus NCTC 6571 ([3]; Table 4) | Color of the fluorescence, Salmonella typhimurium NCTC 74 ([4]; Table 4) | Color of the fluorescence, Pseudomonas aeruginosa NCTC 10662 [12] | Color of the fluorescence, Citrobacter freundii 46262 (wild) [7] | Color of the fluorescence, Morganella morganii 462403 (wild) [8] | Color of the fluorescence, Providencia rettgeri NCTC 7475 [9] | Color of the fluorescence, MRSA NCTC 11939 (MRSA NCTC 11939)
